Test system: Vif-dependent degradation of A3G
Format: cell-based
Settings: YFP-A3G assay, 293T cells

Row | Structure (SMILES) | effect on Vif-dependent degradation of A3G
1 | COC(=O)c1ccc(O)c2nc3c(C=O)c(O)cc(O)c3nc12 [lomofungin] | little effect
2 | COc1cc(-c2ccc(Nc3ccccc3C(=O)O)c(OC)c2)ccc1Nc1ccccc1C(=O)O [redoxal] | little effect
